Results: patent US20070134665
At least one result comes from cells or an extract, where the contact may be indirect. Negatives hold for the conditions tested.

The chains behind the UniProt entries cited, without tags or fusion partners. Where a name states a change or a piece, a line headed by the entry shows the natural chain unless it says otherwise.
UniProt P04483: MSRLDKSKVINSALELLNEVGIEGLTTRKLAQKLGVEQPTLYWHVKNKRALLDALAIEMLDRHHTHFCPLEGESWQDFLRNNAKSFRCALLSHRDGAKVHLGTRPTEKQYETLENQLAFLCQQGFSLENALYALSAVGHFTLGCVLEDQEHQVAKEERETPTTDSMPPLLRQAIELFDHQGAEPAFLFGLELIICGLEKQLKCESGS

Molecular target: TetR-PML IV fusion (UniProt P04483)
Assay: binding assay
Conditions: protein in cells

Row | Sequence | binding result (multiplex detection in co-transfected cells, no co-localisation of signals, label: 5' Cy3 or biotin) | binding result (in situ fluorescence in fixed cells, 50-100 nM Cy5 Tet-O, 150 mM KCl, herring sperm DNA, 37 C, label: 5' Cy5 or biotin)
1 | GCGTGTGCCAGAATTGTGAGCGCTCACAATTTCTTGAATCT / AGATTCAAGAAATTGTGAGCGCTCACAATTCTGGCTCACGC [O-Sym] | no binding | 
2 | TCGAGTTTACTCCCTATCAGTGATAGAGAACGTATGTCGCC / GGCGACATACGTTCTCTATCACTGATAGGGAGTAAACTCGT [Tet-O] |  | binds
